Anti-infective test results gathered from many reports (values: NIAID ChemDB through PubChem).

All rows: whole-cell or culture tests; species: Mycobacterium tuberculosis

An empty or dashed field is not shown. MIC50, MIC90 and the like: level of inhibition, or share of isolates inhibited. MIC bound: limit read from a one-dose screen. Neighbouring rows are from separate reports. ECn: concentration that inhibits the pathogen or its effect by n%. a–b is a range or a potency band. Inhibition is in % at the dose shown (toxicity tests: loss of growth or viability).

SMILES,endpoint,cell line,strain,read by,tested at,value
Cc1[nH]n(CCO)c(=O)c1N=Nc1ccc(C(=O)N/N=C/c2ccc(F)cc2)cc1,EC50,-,H37Rv,-,-,>12.5 µg/mL
CCOC(=O)C1=NN(c2ccccc2)C(=O)C1N=Nc1ccc(S(=O)(=O)Nc2nccc(C)n2)cc1,MIC bound,-,H37Rv,resazurin,-,>6.25 µg/mL
N#Cc1nc2cc(Cl)ccc2nc1N,inhibition,-,H37Rv,-,12.5 µg/mL,23%
CN(C)c1ccc(C2CC(c3ccccc3)=NN2C(=O)c2ccc(O)cc2)cc1,MIC,-,H37Ra,MTT,-,65 µM
c1cncc(-c2noc(C3CCN(c4ccc5cc(-c6ccncc6)ccc5n4)CC3)n2)c1,MIC,-,H37Rv,resazurin,-,<7.8 µM
CN1CCN(c2c(F)cc3c(=O)c(C(=O)O)cn(CCF)c3c2F)CC1,MIC50,-,-,-,-,1.56 µg/mL
COc1cccc2ccc(N3CCC(c4nc(-c5ccc(N6CCCCC6)nc5)no4)CC3)nc12,MIC,-,H37Rv,resazurin,-,<7.8 µM
CC(=O)OC1(C)c2ccccc2C2c3cc(Br)ccc3-n3nnnc3C21,inhibition,-,H37Rv,BACTEC / radiometric,6.25 µg/mL,45%
COc1cccc2ccc(N3CCC(c4nc(-c5cccnc5)no4)CC3)nc12,MIC,-,H37Rv,resazurin,-,15.6–31.5 µg/mL
CN[C@@H]1[C@H](O[C@H]2[C@H](O[C@H]3[C@H](O)[C@@H](O)[C@H](N=C(N)N)[C@@H](O)[C@@H]3N=C(N)N)O[C@@H](C)[C@]2(O)C=O)O[C@@H](CO)[C@H](O)[C@H]1O,MIC,-,666,-,-,0.2 µg/mL
CC1COc2c(N3CCN(C)CC3)c(F)cc3c(=O)c(C(=O)O)cn1c23,MIC90,-,64 isolates,-,-,0.5 µg/mL
O=c1oc(-c2ccncc2)nn1CN1CCN(Cc2ccccc2)CC1,MIC,-,H37Rv,-,-,2.5 µg/mL
Nc1c(S(=O)(=O)O)cc2c3c(cccc13)C(=O)OC2=O,MIC bound,-,H37Rv,resazurin,-,>6.25 µg/mL
O=c1oc2ccc([N+](=O)[O-])cc2c(=O)n1-c1ccc(Cl)cc1,MIC,-,CNCTC MY331/88,-,-,16 µM
Cc1ccc(OS(=O)(=O)c2ccccc2[N+](=O)[O-])cc1,inhibition,-,H37Rv,BACTEC,12.5 µg/mL,25%
S=c1oc(-c2ccncc2)nn1CN1CCCCCC1,MIC,-,H37Rv,-,-,40 µg/mL
COc1ccc(-n2c(=O)oc3cc(OC)ccc3c2=O)cc1,MIC,-,CNCTC MY331/88,-,-,16 µM
CN1CCN(Cn2nc(-c3ccncc3)oc2=O)CC1,MIC,-,H37Rv,-,-,2.5 µg/mL
CCOC(=O)CCCNC(CC(=O)OCC)[C@H]1O[C@@H]2OC(C)(C)O[C@@H]2[C@H]1OCc1ccccc1,MIC,-,H37Rv,-,-,50 µg/mL
Cc1ccc2c(=O)n(-c3cccc(Cl)c3)c(=O)oc2c1,MIC,-,CNCTC MY331/88,-,-,16 µM
O=c1[nH]cc(Cn2cccc3c(=O)ncnc2-3)c(=O)[nH]1,inhibition,-,H37Rv,resazurin,6.25 µg/mL,-7%
S=C(Nc1ccccc1)N1N=C(c2ccccc2)CC1c1ccc(Cl)cc1Cl,MBC,-,H37Ra,visual reading,-,>471 µM
COc1cccc2ccc(N3CCC(c4nc(-c5ccc(OC(F)(F)F)cc5)no4)CC3)nc12,MIC,-,H37Rv,resazurin,-,50–100 µM
O=c1oc2ccc(Br)cc2c(=O)n1-c1ccc(Br)cc1,MIC,-,CNCTC MY331/88,-,-,4 µM
CCOC(=O)/C(N=Nc1ccc(-c2n[nH]c(=S)o2)cc1)=C(\C)O,EC50,-,H37Rv,-,-,>12.5 µg/mL
C=CC[C@@]1(C)C[C@@H](C)C(=O)[C@H](C)[C@H]2NC(=O)O[C@]2(C)[C@@H](CC)OC(=O)[C@H](C)C(=O)[C@H](C)[C@H]1O[C@@H]1O[C@H](C)C[C@H](N(C)C)[C@H]1O,MIC,-,-,-,-,>128 µM
CN1CCN(Cn2nc(-c3ccncc3)oc2=S)CC1,MIC,-,H37Rv,-,-,40 µg/mL
Clc1cccc2[nH]c(-c3ccncc3)nc12,inhibition,-,H37Rv,BACTEC,6.25 µg/mL,4%
Cc1[nH]n(CCO)c(=O)c1N=Nc1ccc(-c2n[nH]c(=O)n2-c2ccccc2)cc1,MIC,-,H37Rv,-,-,>12.5 µg/mL
Clc1cccc2ccc(N3CCC(c4nc(-c5cccnc5)no4)CC3)nc12,MIC,-,H37Rv,resazurin,-,15.6–31.5 µM
O=c1oc2ccccc2c(=O)n1-c1ccccc1,MIC,-,CNCTC MY331/88,-,-,125 µM
CC(=O)N1CCN(Cn2nc(-c3ccncc3)oc2=O)CC1,MIC,-,H37Rv,-,-,2.5 µg/mL
CC[C@H]1OC(=O)[C@H](C)C(=O)[C@H](C)[C@@H](O[C@@H]2O[C@H](C)C[C@H](N(C)C)[C@H]2O)[C@](C)(OC)C[C@@H](C)C(=O)[C@H](C)[C@H]2N(NCCCCCCc3ccnc4ccccc34)C(=O)O[C@]12C,MIC,-,-,-,-,4 µM
O=c1oc(-c2ccncc2)nn1CN1CCOCC1,MIC,-,H37Rv,-,-,2.5 µg/mL
Cc1ccc2oc(=O)c(/C=C(\O)c3ccccc3Cl)nc2c1,MIC,-,H37Rv,-,-,100 µg/mL
CCCCCCC(=O)OC1(C)c2ccccc2C2c3cc(Br)ccc3-n3nnnc3C21,inhibition,-,H37Rv,BACTEC / radiometric,6.25 µg/mL,39%
CC[C@H]1OC(=O)[C@H](C)C(=O)[C@H](C)[C@@H](O[C@@H]2O[C@H](C)C[C@H](N(C)C)[C@H]2O)[C@](C)(OC)C[C@@H](C)/C(=N\OC2CCCN(C(=O)OCc3ccccc3)C2)[C@H](C)[C@@H](O)[C@]1(C)O,MIC,-,-,-,-,64 µM
CCOC(=O)CCCNC(CC(=O)OCC)[C@H]1O[C@@H]2OC(C)(C)O[C@@H]2[C@H]1OC,MIC,-,H37Ra,-,-,>25 µg/mL
O=C(Cc1ccccc1)Nn1c(-c2ccccc2)nc2ccccc2c1=O,MIC bound,-,H37Rv,BACTEC,-,>12.5 µg/mL
COc1ccc(-n2c(=O)oc3cc(C)ccc3c2=O)cc1,MIC,-,CNCTC MY331/88,-,-,16 µM
CCn1c(-c2ccc(N=Nc3c(C)[nH]n(CCO)c3=O)cc2)n[nH]c1=S,EC50,-,H37Rv,-,-,>12.5 µg/mL
Cc1cc(=O)oc2c(C)c3c(cc12)CC(CI)O3,inhibition,-,H37Rv,BACTEC,12.5 µg/mL,24%
COc1cc2c(c(OC)c1OC)-c1ccc(OC)c(=O)cc1C(NC=O)CC2,inhibition,-,H37Rv,BACTEC,12.5 µg/mL,-6%
COc1cccc2ccc(N3CCC(c4nc(-c5ccc(Cl)nc5)no4)CC3)nc12,MIC,-,H37Rv,resazurin,-,15.6–31.5 µM
COc1cc2cc3c4cc(OC)c(OC)cc4cc[n+]3c(C)c2cc1OC,MIC,-,H37Rv,BACTEC,-,≥12.5 µg/mL
CCCCCCCCCCCCNC(CC(=O)OCC)[C@H]1O[C@@H]2OC(C)(C)O[C@@H]2[C@H]1OC,MIC,-,H37Ra,-,-,>25 µg/mL
COc1ccc2nc(N3CCC(c4nc(-c5cccnc5)no4)CC3)ccc2c1,MIC,-,H37Rv,resazurin,-,<7.8 µM
CC1COC2(CCN(c3nc(=O)c4cc(C(F)(F)F)cc([N+](=O)[O-])c4s3)CC2)O1,MIC,-,H37Rv,-,-,0.001 µg/mL
CC1(O)c2ccccc2-c2c1c1nncn1c1ccc(Br)cc21,inhibition,-,H37Rv,BACTEC / radiometric,6.25 µg/mL,66%
Cc1c(F)c(=O)oc2c(C)c3c(cc12)CC(CI)O3,inhibition,-,H37Rv,BACTEC,12.5 µg/mL,31%
Cc1cc(=O)oc2cc(OC(=O)CNC3N=C(c4ccc(F)cc4)C=C(c4cccc(Oc5ccccc5)c4)S3)c([N+](=O)[O-])cc12,MIC98,-,H37Rv,broth dilution,-,>1000 µg/mL
O=C(c1ccc(O)cc1)N1N=C(c2ccccc2)CC1c1ccc(Cl)cc1Cl,MBC,-,H37Ra,visual reading,-,488 µM
C[C@@H]1CN(c2c(F)c(N)c3c(=O)c(C(=O)O)cn(C4CC4)c3c2F)C[C@H](C)N1,MIC90,-,10 isolates,-,-,0.5 µg/mL
C=CCC1=C(C)C(OC(=O)/C=C/c2ccccc2Cl)CC1=O,MIC bound,-,H37Rv,BACTEC,-,>12.5 µg/mL
Cc1[nH][nH]c(=O)c1N=Nc1ccc(C(=O)N/N=C/c2ccc(F)cc2)cc1,EC50,-,H37Rv,-,-,>12.5 µg/mL
Cc1ccc(-n2c(=O)oc3cc(Cl)ccc3c2=O)cc1,MIC,-,CNCTC MY331/88,-,-,8 µM
CCCCCCCCCCCCCCCCNC(CC(=O)OCC)[C@H]1O[C@@H]2OC(C)(C)O[C@@H]2[C@H]1OCc1ccccc1,MIC,-,H37Ra,-,-,>25 µg/mL
COc1ccc2c(=O)n(-c3ccc(C)cc3)c(=O)oc2c1,MIC,-,CNCTC MY331/88,-,-,16 µM
CC[C@H]1OC(=O)[C@H](C)C(=O)[C@H](C)[C@@H](O[C@@H]2O[C@H](C)C[C@H](N(C)C)[C@H]2O)[C@](C)(OC)C[C@@H](C)C(=O)[C@H](C)[C@H]2N(C/C=C/Cc3ccccc3)C(=O)O[C@]12C,MIC,-,-,-,-,1 µM
CCO/C=C1\N=C(c2ccc(OC)c(OC)c2)OC1=O,MIC bound,-,H37Rv,BACTEC,-,>12.5 µg/mL
NNC(=O)c1ccncc1,MBC,-,H37Ra,visual reading,-,5 µM
CN(C)C(=O)OC1(C)c2ccccc2C2c3cc(Br)ccc3-n3nnnc3C21,inhibition,-,H37Rv,BACTEC / radiometric,6.25 µg/mL,29%
NS(=O)(=O)c1ccc(NC(=O)c2cccn3c(=O)c4ccccc4nc23)cc1,inhibition,-,H37Rv,resazurin,6.25 µg/mL,13%
O=c1oc(-c2ccncc2)nn1CN1CCCCCC1,MIC,-,H37Rv,-,-,2.5 µg/mL
C=C1CCCC(C)(C)[C@@H]1CC/C(C)=C/CC/C(C)=C/CO,inhibition,-,-,-,6.25 µg/mL,36%
O=[N+]([O-])c1cc2ncccc2c2ncccc12,MIC,-,PAS-R,-,-,3.1 µg/mL
O=C(c1ccc(O)cc1)N1N=C(c2ccccc2)CC1c1ccccc1Cl,MBC,-,H37Ra,visual reading,-,532 µM
Cc1c2ccnc(C(N)=O)c2c(C)c2c1[nH]c1ccccc12,MIC,VERO,H37Rv,-,-,3.13 µg/mL
CC[C@H]1OC(=O)[C@H](C)C(=O)[C@H](C)[C@@H](O[C@@H]2O[C@H](C)C[C@H](N(C)C)[C@H]2O)[C@](C)(OC)C[C@@H](C)C(=O)[C@H](C)[C@H]2N(CCCCn3cnc(-c4cccnc4)c3)C(=O)O[C@]12C,MIC,-,-,-,-,128 µM
Cc1cc(Br)cc(C)c1NC(=O)C(=O)Nn1c(=S)[nH]c2ccccc2c1=O,MIC bound,-,H37Rv,BACTEC,-,>12.5 µg/mL
Cc1cc(=O)oc2c(C)c3c(cc12)CC(CN(C)C)O3,inhibition,-,H37Rv,BACTEC,12.5 µg/mL,4%
CC1CCCCN1.CC1CCCCN1C(=S)S,MIC,-,PAS-R,-,-,1.6 µg/mL
O=C(c1ccc(O)cc1)N1N=C(c2ccccc2)CC1c1ccc(Cl)cc1,MIC,-,H37Ra,MTT,-,66 µM
C=CC1CN2CCC1CC2C(OC(=O)C(O)c1ccccc1)c1ccnc2ccccc12,inhibition,-,H37Rv,resazurin,6.25 µg/mL,8%
O=c1oc2cc(Cl)ccc2c(=O)n1-c1ccc(F)cc1,MIC,-,CNCTC MY331/88,-,-,8 µM
CC1(C)CCC2=C(O1)C(=O)c1ccccc1C2=O,MIC bound,-,H37Rv,BACTEC,-,>12.5 µg/mL
CN[C@@H]1[C@@H](O)C(O[C@@H]2[C@@H](O)[C@H](OC3O[C@H](CN)[C@@H](O)[C@H](O)[C@H]3O)[C@@H](N)C[C@H]2NC(=O)[C@@H](O)CN)OC[C@]1(C)O,MIC,-,OR102,-,-,3.13 µg/mL
O=C[C@@H](O)[C@@H](O)[C@H](O)[C@H](O)CO,MIC bound,-,H37Rv,resazurin,-,>6.25 µg/mL
S=c1oc(-c2ccncc2)nn1CN1CCC(Cc2ccccc2)CC1,MIC,-,H37Rv,-,-,40 µg/mL
Cc1ncc(CO)c(C2NC(C(=O)O)CS2)c1O,inhibition,-,H37Rv,BACTEC,12.5 µg/mL,0%
CCOC(=O)/C(N=Nc1ccc(-c2n[nH]c(=S)n2CC)cc1)=C(\C)O,MIC,-,H37Rv,-,-,>12.5 µg/mL
Cn1c2ccccc2c(=O)c2c(O)cc3c(c21)N=CC(C)(C)O3.O=C(O)C(F)(F)F,MIC bound,-,H37Rv,BACTEC,-,>12.5 µg/mL
O=[N+]([O-])c1cn2c(n1)OC[C@@H](OCc1ccc(OC(F)(F)F)cc1)C2,MIC,-,Drug-resistant,-,-,0.06 µg/mL